Test results taken from US8834852B2, “Composition for oral cavity” (Kao Corporation, priority 2004, dated 2014).

Test system: plaque suspension
Test: pH change of plaque suspension (acid generation by decomposition)
Assay type: cell-based
Conditions: 0.9% (wt/vol %) inhibitor in 5 wt. % plaque suspension, pH adjusted to 7, 37° C.

## O=C[C@H](O)[C@@H](O)[C@@H](O)[C@H](O)CO [Galactose, galactose]
  pH change of the plaque suspension: a pH decrease was observed

## CCCCCCCCO[C@@H]1O[C@H](CO)[C@H](O)[C@H](O)[C@H]1O [β-octyl galactoside]
  pH change of the plaque suspension: almost no pH change was observed

## OC[C@H]1O[C@@H](O[C@H]2[C@H](O)[C@@H](O)C(O)O[C@@H]2CO)[C@H](O)[C@@H](O)[C@H]1O (stereo partly drawn) [Lactose, lactose]
  pH change of the plaque suspension: a pH decrease was observed
